Test system: HIV-1NL4-3
Assay: HIV-1 NL4-3 replication assay in SupT1 cells (p24 ELISA)
Conditions: 3 μM; 2.1 ng of HIV-1 p24

mixture of α, β and γ-N—N-dimethyl[70]fulleropyrrolidinium iodide [Compound 2a]
HIV-1 replication at the lowest multiplicity of infection: replication remains undetected for more than two weeks
